In patent EP3858345B1, “RADIOTRACER DERIVATIVES OF TRIMETHOPRIM FOR DIAGNOSTIC IMAGING” (dated 2026):

Test system: Live bacteria (E. coli, 1 x 10^8 CFU)
Assay: Infection v inflammation imaging in mice

Row | Molecule | uptake for bacteria versus turpentine inflammation (injected the day after [^18F]FPTMP) | uptake in turpentine inflammation (30 µL of turpentine in left leg 3 days prior to imaging) | uptake in live bacteria (E. coli subcutaneously in right leg, PET imaging)
1 | OC[C@H]1OC(O)[C@H](F)[C@@H](O)[C@@H]1O (stereo partly drawn) | no difference | – | –
2 | [^18F]Fluoropropyltrimethoprim | – | not in turpentine inflammation | observed
